Experimental data reported in patent publication US4886667A, “External preparation composition” (priority 1985, dated 1989).

Tested on: Peptostreptococcus sp. (22 isolated strains)
Experiment: MIC against clinically isolated strains (cumulation percent)
Details: 22 isolated strains of Peptostreptococcus sp.

Substance: Ratanhiaphenol [F]
- range of effective concentration (100% efficiency): 3.13 to 12.5 µg/mL
